Laboratory results from paper PMC10601815, “αβ,α′β′-Diepoxyketones are mechanism-based inhibitors of nucleophilic cysteine enzymes” (Chemical Communications (Cambridge, England), 2023).

Target: SARS-CoV-2 Mpro (Severe acute respiratory syndrome coronavirus 2, UniProt P0DTD1)
Details: 2 µM Mpro, 20 µM DEK, rt, 20 mM HEPES pH 7.5

O=C1C2(CCC13OC3c1ccccc1)OC2c1ccccc1 (stereo not shown) [DEK 9]
covalent adduct with Mpro (in words): single adduct of +186 Da
